Compound potency records, mixed from different reports. Data source: NIAID ChemDB in PubChem.

All rows: cytotoxicity tests; cell line: H9; read-out: CC50

CCn: concentration that lowers growth or viability of the cells by n%. Rows are shuffled and stem from different studies.

| smiles | value |
|---|---|
| O=C1O[C@H]([C@@H](O)CO)C2(O)Oc3cc(O)c4c(c3[C@@]12O)O[C@H](c1cc(O)c(O)c(O)c1)[C@H](O)C4 | 38 µg/mL |
| O=C(O[C@@H]1OC2CC(=O)c3cc(O)c(O)c(O)c3-c3c(cc(O)c(O)c3O)C(=O)OC2C(O)C1O)c1cc(O)c(O)c(O)c1 | 62 µM |
| O=C(O[C@@H]1Cc2c(O)cc(O)cc2O[C@@H]1c1cc(O)c(O)c2c(=O)c(O)cc([C@H]3Oc4cc(O)cc(O)c4C[C@H]3O)cc12)c1cc(O)c(O)c(O)c1 | 48 µg/mL |
| O=C(O[C@@H]1O[C@@H]2COC(=O)c3cc(O)c(O)c(O)c3-c3c(cc(O)c(O)c3O)C(=O)O[C@H]([C@H]1O)[C@@H]2O)c1cc(O)c(O)c(O)c1 | 15 µM |
| CCCC1NCCc2cc(O)c(O)cc21 | 21.8 µg/mL |
| Cc1cn([C@H]2C[C@H](N=[N+]=[N-])[C@@H](CO)O2)c(=O)[nH]c1=O | >0.048 µM |
| COc1cc2c(c(OC)c1O)-c1ccc(SC)c(=O)cc1[C@@H](NC(C)=O)CC2 | 0.052 µM |
| C[C@]12CC[C@H]3[C@@H](CC=C4NC(=O)CC[C@@]43C)[C@@H]1CC[C@@H]2C(=O)Nc1ccc([N+](=O)[O-])c(C(F)(F)F)c1 | 4.8 µM |
| C/C=C(/C)C(=O)OC1c2cc3c(c(OC)c2-c2c(cc4c(c2OC)OCO4)C[C@H](C)[C@H]1C)OCO3 | 34 µg/mL |
| COc1ccc(C(C)c2c3cc(OC)c(OC)cc3cc[n+]2C)cc1OC | >100 µg/mL |
| Oc1cc(O)c2c(c1)O[C@H](c1cc(O)c(O)c(O)c1)[C@H](O)[C@H]2c1c(O)cc(O)c2c1O[C@H](c1cc(O)c(O)c(O)c1)[C@H](O)C2 | 18 µg/mL |
| Cc1c2cc(O)c(O)cc2cc[n+]1C | 2.15 µg/mL |
| O=C(O[C@@H]1Cc2c(O)cc3c(c2O[C@@H]1c1cc(O)c(O)c(O)c1)[C@@]1(O)C(=O)O[C@H]([C@@H](O)CO)C1(O)O3)c1cc(O)c(O)c(O)c1 | 40 µg/mL |
| O=C1OCC2OC(=O)c3cc(O)c(O)c(O)c3-c3c(O)c(O)c(O)c4c3C(=O)OC(C2OC(=O)c2cc(O)c(O)c(O)c2-c2c1cc(O)c(O)c2O)C1OC(=O)c2c-4c(O)c(O)c(O)c2C1c1c(O)cc(O)c2c1O[C@H](c1ccc(O)c(O)c1)C(O)C2 | 15 µM |
| COc1c(OCc2ccccc2)c(OCc2ccccc2)cc(C=O)c1-c1c(C=O)cc(OCc2ccccc2)c(OCc2ccccc2)c1OC | 4 µM |
| O=C(Oc1c(O)cc([C@H]2Oc3cc(O)cc(O)c3C[C@H]2OC(=O)c2cc(O)c(O)c(O)c2)cc1O)c1cc(O)c(O)c(O)c1 | 40 µg/mL |
| CCOc1ccc(Cc2[nH+]c(C)cc3cc(OCC)c(OCC)cc23)cc1OCC | >100 µg/mL |
| COc1cc2c(c(OC)c1O)-c1ccc(SC)c(=O)cc1[C@@H](N)CC2 | 1.4 µM |
| BrCc1cc(OCc2ccccc2)c(OCc2ccccc2)c(OCc2ccccc2)c1-c1c(CBr)cc(OCc2ccccc2)c(OCc2ccccc2)c1OCc1ccccc1 | >100 µM |
| CC1OC(O)C2OC(=O)c3cc(O)c(O)c(O)c3-c3c(cc(O)c(O)c3O)C(=O)OC2C1O | 15 µM |
| COc1cc2c(c(OC)c1OC)-c1ccc(OC)c(=O)cc1[C@@H](NC(=O)/C=C/c1ccc(O)c(O)c1)CC2 | 0.29 µM |
| Nc1ccn([C@H]2CC[C@@H](CO)O2)c(=O)n1 | >100 µM |
| Nc1nc2c(ncn2CC(CO)CCO)c(=O)[nH]1 | >50 µM |
| COc1cc2c(c(OC)c1OC)-c1ccc(O)c(=O)cc1[C@@H](NC(=O)C(F)(F)F)CC2 | 0.2 µM |
| C[C@]12CC[C@H]3[C@@H](CCC4=CC(=O)CC[C@@]43C)[C@@H]1CC[C@@H]2C(=O)O | 67.3 µM |
| CCCOc1cc2cc[n+](C)c(CC)c2cc1OCCC | 5.4 µg/mL |
| COc1cc(/C=C/C(=O)N[C@H]2CCc3cc(OC)c(OC)c(OC)c3-c3ccc(OC)c(=O)cc32)cc(OC)c1O | 0.18 µM |
| COC(=O)[C@H]1CC[C@H]2[C@@H]3CCC4=CC(=O)CC[C@]4(C)[C@H]3CC[C@]12C | 15.3 µM |
| O=C(OCC1O[C@@H](O)C(O)(COC(=O)c2cc(O)c(O)c(O)c2)C1O)c1cc(O)c(O)c(O)c1 | 45 µM |
| Nc1ccn([C@H]2CC[C@@H](CO)O2)c(=O)n1 | 13 µM |
| COc1c2c(cc3c1-c1c(cc4c(c1OC)OCO4)C(OC(=O)c1ccccc1)[C@H](C)[C@@H](C)C3)OCO2 | 41 µg/mL |
| COc1c(OCc2ccccc2)c(OCc2ccccc2)cc(CBr)c1-c1c(CBr)cc(OCc2ccccc2)c(OCc2ccccc2)c1OC | 30 µM |

Repeating the final 3 entries:

| smiles | value |
|---|---|
| Nc1ccn([C@H]2CC[C@@H](CO)O2)c(=O)n1 | 13 µM |
| COc1c2c(cc3c1-c1c(cc4c(c1OC)OCO4)C(OC(=O)c1ccccc1)[C@H](C)[C@@H](C)C3)OCO2 | 41 µg/mL |
| COc1c(OCc2ccccc2)c(OCc2ccccc2)cc(CBr)c1-c1c(CBr)cc(OCc2ccccc2)c(OCc2ccccc2)c1OC | 30 µM |